Results deposited as PubChem BioAssay AID624099 (ICCB-Longwood, 2012)
Assay: 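Human genes that papillomavirus E2 requires to repress the HPV18 LCR promoter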 (primary screen). Cell system: human C33A cervical carcinoma cells (HPV-negative) stably expressing BPV1 E2 and an HPV18 LCR luciferase reporter. Reagents: siRNA pool against human genes, 40 nM. Duration: 72 h. Measured: 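Per-well luciferase luminescence, z-scored on each plate against the plate mean and SD with control wells left out, then averaged across three replicate plates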. Direction: mean z-score and z-score: higher = stronger reporter signal, weaker E2 silencing. Active means: 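Hit if mean z-score reaches 2 and two or more of three replicate z-scores also reach 2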.
Here is a random part of about 21,000 reagents. Of all reagents, 497 (2.4%) got an active call. 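Higher z means weaker E2 silencing; only reporter increases were scored, and knock-downs that hurt cell survival may mask genuine repressor factors.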 Reagent sequences are not shown.

gene knocked down	mean z-score	z-score, replicate A	z-score, replicate B	z-score, replicate C	outcome
LOC389323 (retired record)	-0.85	-0.75	-0.93	-0.88	inactive
HDAC9	-0.14	0.11	-0.25	-0.29	inactive
PMCHL1	0.87	1.06	0.89	0.67	inactive
LINC02915	1.53	1.91	1.06	1.6	inactive
CHRNA9	-0.36	-0.53	-0.36	-0.19	inactive
SNCB	0.2	0.32	-0.03	0.32	inactive
F8	-0.72	-0.4	-1.08	-0.68	inactive
SCAMP2	0.41	0.19	0.68	0.35	inactive
C1R	0.93	1.1	0.92	0.77	inactive
PSAP	0.72	0.84	0.59	0.73	inactive
C8orf15 (retired record)	0.68	0.36	0.93	0.75	inactive
WASHC2A	0.15	0.57	-0.27	0.15	inactive
ZNF493	0.91	0.82	0.73	1.18	inactive
OR10AG1	-0.35	-0.14	-0.85	-0.06	inactive
IGHV4OR15-8	-0.02	-0.23	0.12	0.05	inactive
SPRING1	0.84	0.31	1.05	1.16	inactive
EIF2AK2	0.55	0.04	0.95	0.66	inactive
CYP4Z1	0.13	0.29	0.25	-0.16	inactive
SMARCA4	-0.05	-0.04	-0.07	-0.04	inactive
MYOM2	-0.49	-0.22	-0.79	-0.45	inactive
VPS35L	0.88	0.92	0.9	0.82	inactive
ZNF581	-0.69	-0.44	-0.97	-0.66	inactive
SLC25A23	-0.88	-1.04	-0.97	-0.64	inactive
GIPR	0.19	0.26	0.15	0.16	inactive
FAM86GP	1.21	1.56	0.64	1.43	inactive
FJX1	0.19	0.01	0.2	0.36	inactive

Ordered by “z-score, replicate A” (lowest first): 12 of the entries above.
gene knocked down	mean z-score	z-score, replicate A	z-score, replicate B	z-score, replicate C	outcome
SLC25A23	-0.88	-1.04	-0.97	-0.64	inactive
ZNF581	-0.69	-0.44	-0.97	-0.66	inactive
IGHV4OR15-8	-0.02	-0.23	0.12	0.05	inactive
MYOM2	-0.49	-0.22	-0.79	-0.45	inactive
OR10AG1	-0.35	-0.14	-0.85	-0.06	inactive
SMARCA4	-0.05	-0.04	-0.07	-0.04	inactive
EIF2AK2	0.55	0.04	0.95	0.66	inactive
CYP4Z1	0.13	0.29	0.25	-0.16	inactive
SPRING1	0.84	0.31	1.05	1.16	inactive
WASHC2A	0.15	0.57	-0.27	0.15	inactive
ZNF493	0.91	0.82	0.73	1.18	inactive
VPS35L	0.88	0.92	0.9	0.82	inactive

Next reagents follow:
gene knocked down	mean z-score	z-score, replicate A	z-score, replicate B	z-score, replicate C	outcome
COX6C	-1.72	-1.8	-1.61	-1.76	inactive
CHRNA1	-0.01	0.27	-0.02	-0.28	inactive
CST11	-0.63	-0.17	-0.86	-0.86	inactive
SAE1	0.28	0.41	0.2	0.22	inactive
HJURP	0.74	0.67	0.86	0.7	inactive
CHRFAM7A	-0.5	-0.55	-0.39	-0.57	inactive
SLC40A1	0.18	0.01	0.19	0.34	inactive
PABIR2	-0.5	-0.18	-0.87	-0.44	inactive
COA3	-0.54	-0.45	-0.55	-0.61	inactive
LYSMD4	-1.17	-1.1	-1.46	-0.96	inactive
MLXIP	-0.01	-0.27	0.17	0.06	inactive
FOXM1	0.41	0.69	0.23	0.3	inactive
TARS2	-0.24	-0.44	-0.08	-0.19	inactive
RPL27	-1.95	-1.79	-2.17	-1.88	inactive
ATG4A	0.1	-0.22	-0.1	0.63	inactive
LRRD1	-0.58	-0.49		-0.68	inactive
IPPK	0.23	0.26	-0.02	0.45	inactive
SGF29	0	-0.07	-0.04	0.12	inactive
WDFY3	2.61	2.48	2.5	2.84	active
H2AC18	-1.38	-1.73	-1.14	-1.27	inactive
ZNF569	0.73	1.29	0.2	0.71	inactive
MMP21	1.31	1.54	1.01	1.37	inactive
MTREX	-0.84	-0.86	-1.04	-0.61	inactive
UGGT2	0.3	0.58	0.19	0.14	inactive
LOC388549 (retired record)	0.18	0.1	0.42	0.03	inactive
LOC401322 (retired record)	-0.77	-0.72	-0.8	-0.79	inactive
ZNF99	0.59	0.66	0.82	0.29	inactive
PCDHA7	1	0.84	0.94	1.21	inactive
TMEM177	0.14	0.28	0.13	0.01	inactive
VILL	-0.03	0.05	-0.08	-0.05	inactive
NUP62	0.45	0.56	0.36	0.43	inactive
HELZ	0.7	0.71	0.63	0.77	inactive
SNAP29	-0.62	-0.64	-0.63	-0.58	inactive
MFN2	0.36	0.43	0.36	0.3	inactive
SMIM26	0.6	0.29	0.58	0.93	inactive
MRGPRG-AS1	0.59	0.46	0.74	0.57	inactive
BCAP29	-0.66	-0.68	-0.71	-0.6	inactive
GPN2	1.22	1.4	1.07	1.19	inactive
SCARA3	-0.1	-0.1	-0.28	0.1	inactive
KL	-0.14	0.04	-0.02	-0.44	inactive
GAPDHP72	-0.28	-0.29	-0.18	-0.37	inactive
LOC390777 (retired record)	0.2	0.05	0.28	0.28	inactive
LOC388727 (retired record)	0.8	0.56	1.24	0.59	inactive
HEATR5B	1.28	1.06	1.14	1.63	inactive
LOC401112 (retired record)	1.45	1.34	1.18	1.83	inactive
BANF2	-2.12	-2.24	-2.38	-1.74	inactive
ACSM1	0.45	0.28	0.48	0.6	inactive
